Our source for the Potency values is PubChem BioAssay AID540256 (National Center for Advancing Translational Sciences (NCATS), 2011).

The list shows a part of the results, in another mix than the full data. Records with an inconclusive call do not appear. The source made the active and inactive calls. The call rests on the fitted dose curve; tested in HEK293 cells.
Potency means the concentration at half of the fitted maximal effect.

The assay is described as follows: qHTS for Inhibitors of binding or entry into cells for Lassa Virus. Further: nearly all actives have a fitted effect of over 50% in size. Particulars: Lassa virus pseudotype entry inhibition, cell reporter. A general note: Quantitative high-throughput screening tests each substance at several concentrations.
As to `Cc1cc(N(CCCl)CCCl)ccc1C=O`, the Potency is active: 282 nM.
